# System: Leishmania (L.) infantum intracellular amastigotes
# Experiment: Anti-L. (L.) infantum activity in vitro, intracellular amastigotes in peritoneal macrophages, infection index
# Assay type: cell-based
# Settings: selectivity index: CC50 against NCTC cells/IC50 against amastigotes
# Method: The synthesized compounds were evaluated for their anti-L. (L.) infantum activity on intracellular amastigotes following 96 h treatment, with standard drug miltefosine used as a control. […] Leishmania (L.) infantum (MHOM/BR/1972/LD) amastigotes were obtained by differential centrifugation from golden hamsters (Mesocricetus auratus) spleens with 60–70 days of infection and the number of parasites was determined by the Stauber method.[18] Murine conjunctive fibroblasts NCTC clone 929 (ATCC) were maintained in RPMI-1640 medium supplemented with 10% FBS at pH 7.2 and 37 °C in a humidified incubator with 5% CO2. Peritoneal macrophages were by obtained by washing the peritoneal cavity of BALB/c mice with RPMI-1640 medium supplemented with 10% FBS, pH 7.2 and maintained at 37 °C in a humidified incubator with 5% CO2. Peritoneal macrophages (1 × 10^5/well) were added in 16-well slide chambers (NUNC) and incubated overnight at 37 °C with 5% CO2. Subsequently, the cells were infected with L. (L.) infantum amastigotes (10 : 1 amastigotes/macrophage) for 24 h, treated with compounds serially diluted (6.25 to 50 μM) and incubated for 96 h at 37 °C with 5% CO2. Miltefosine was used as standard drug and untreated cells as a negative control. Slides were fixed with methanol, stained with Giemsa and observed under a light microscope.[19] […] The determination of CC50 and IC50 values was performed by sigmoid dose–response curves using the Graph Pad Prism 5 software. The samples were tested in duplicate and the assays were reproduced at least twice.
row,Compound,SI
1,CCCc1ccc(Oc2cc(CN3CCOCC3)cc(OC)c2OCc2ccc(OC)cc2)c(OC)c1 [Compound 28],>12.2
2,C=CCc1cc(OC)c(OCc2ccc(OC)cc2)c(Oc2ccccc2OC)c1 [Compound 9],>8.3
3,CCCc1ccc(Oc2cc(CN3CCOCC3)cc(OC)c2OCc2ccc(C(F)(F)F)cc2)c(OC)c1 [Compound 29],>15.1
4,CCCc1ccc(Oc2cc(CN3CCOCC3)cc(OC)c2OCc2cc(OC)c(OC)c(OC)c2)c(OC)c1 [Compound 30],>7.6
5,CCCc1ccc(Oc2cc(CN3CCOCC3)cc(OC)c2OCc2ccc(OC)cc2)cc1 [Compound 34],>13.1
6,C=CCc1cc(OC)c(OCc2ccc(OC)cc2)c(Oc2ccc(CN3CCOCC3)cc2OC)c1 [Compound 24],> 20.6
7,C=CCc1cc(OC)c(OC(C)=O)c(Oc2ccccc2OC)c1 [Compound 11],>6.1

# Source: PMC10357944 (RSC Medicinal Chemistry, 2023)
